This note sets out measurements from US20050037436A1, “Test systems and the use thereof for identifying and characterizing compounds” (priority 2000, published 2005).

The target of experiment [1] is HC110-R receptor with a C-terminal Myc/His tag (Haemonchus contortus). Description: cell-based or functional assay.
Experiment [2] deals with HC110-R-GFP fusion protein (HC110-R with C-terminal EGFP tag) (Haemonchus contortus; Aequorea victoria) [GFP: P42212]. Description: cell-based or functional assay.

“alpha-latrotoxin (from UniProt P23631 21-1199) (ligand)”: in experiment [1], the Ca2+ influx on addition of 75 nM α-LTX (Ca2+ imaging, HEK-293 cells) worked out at 296 nM and the increase in [Ca2+]i 2 min after 25 nM α-LTX (Ca2+ imaging, HEK-293 cells) was 130 nM. In experiment [2], this substance displayed a first increase in [Ca2+]i at 120 nM α-LTX (Ca2+ imaging, HEK-293 cells) of 135 nM and a second increase in [Ca2+]i at 120 nM α-LTX (Ca2+ imaging, HEK-293 cells) of 50 nM.
